Compound potency records, mixed from different reports. Data source: NIAID ChemDB in PubChem.

Common to all: tests on isolated targets; organism: HIV-1; protein: Reverse transcriptase; read by: nucleotide incorporation / radiometric; endpoint: inhibition

Inhibition is in % at the dose shown (toxicity tests: loss of growth or viability).

| smiles | strain | changes | tested at | result |
|---|---|---|---|---|
| CC(C)=CCC/C(C)=C/Cc1c(O)cc(O)c(C/C=C(\C)CCC=C(C)C)c1C(=O)c1c(O)cc(O)cc1O | - | - | 200 µg/mL | 97.7% |
| CCN1c2ccccc2N(C)C(=O)c2cncnc21 | IIIB | - | 30 µM | 26% |
| CCN1c2ncc(CCc3ccncc3)cc2C(=O)N(C)c2ccc(C#N)nc21 | WT | - | 1 µM | 82% |
| CC(C)(O)CCc1c(O[C@@H]2O[C@H](CO)[C@@H](O)[C@H](O)[C@H]2O)cc2c(c1O)C(=O)[C@H](O)[C@@H](c1ccc(O)c(O)c1)O2 | - | - | 200 µg/mL | 0% |
| CCN1c2ncc(C3(c4ccccc4)CO3)cc2C(=O)N(C)c2ccc(Cl)nc21 | WT | - | 1 µM | 76% |
| CC(=O)O[C@H]1CC[C@@]2(C)[C@@H](CC[C@@]3(C)[C@H]2CC=C2[C@@H]([C@H](C)CC/C=C(\C)C(=O)O)CC[C@@]23C)C1(C)C | - | - | 200 µg/mL | 96.2% |
| CC(=O)O[C@]1(C)/C=C/C[C@@H](C)/C=C/[C@@]2(C)CC[C@@H](C(C)(C)O)[C@@H]2[C@@H](O)C1 | - | - | 40 µM | 22% |
| CCN1c2ncc(CCc3ccc(N(C)S(C)(=O)=O)cc3)cc2C(=O)N(C)c2ccc(Cl)nc21 | WT | - | 1 µM | 48% |
| O=C(c1cc(Br)c(O)c(Br)c1)c1c(-c2cc(Br)c(O)c(Br)c2)c(-c2cc(Br)c(O)c(Br)c2)c(C(=O)c2cc(Br)c(O)c(Br)c2)n1CCc1ccc(O)cc1 | - | - | 0.4775 µM | 95% |
| COc1ccc(-c2coc3cc4c(c(OC)c3c2=O)OCO4)cc1OC | - | - | 200 µg/mL | 0% |
| O=c1cc(-c2ccc(O)c(-c3c(O)cc4oc(-c5ccc(O)cc5)cc(=O)c4c3O)c2)oc2cc(O)cc(O)c12 | - | - | 200 µM | 95.5% |
| CC(C)=CCc1c(O[C@@H]2O[C@H](CO)[C@@H](O)[C@H](O)[C@H]2O)cc2c(c1O)C(=O)[C@H](O)[C@@H](c1ccc(O)cc1)O2 | - | - | 200 µg/mL | 0% |
| Nc1ccn([C@@H]2O[C@H](COP(=O)(O)O[C@@H]3[C@H](O)[C@@H](COP(=O)(O)O[C@@H]4[C@H](O)[C@@H](CO)O[C@H]4n4ccc(N)nc4=O)O[C@H]3n3ccc(N)nc3=O)[C@@H](O)[C@H]2O)c(=O)n1 | - | - | 400 µM | 40% |
| CCN1c2nc(Cl)ccc2NC(=O)c2cc(CCc3cccc(NS(C)(=O)=O)c3)cnc21 | - | RT-Y181C | 1 µM | 70% |

Repeating the final 2 entries:

smiles,strain,changes,tested at,result
Nc1ccn([C@@H]2O[C@H](COP(=O)(O)O[C@@H]3[C@H](O)[C@@H](COP(=O)(O)O[C@@H]4[C@H](O)[C@@H](CO)O[C@H]4n4ccc(N)nc4=O)O[C@H]3n3ccc(N)nc3=O)[C@@H](O)[C@H]2O)c(=O)n1,-,-,400 µM,40%
CCN1c2nc(Cl)ccc2NC(=O)c2cc(CCc3cccc(NS(C)(=O)=O)c3)cnc21,-,RT-Y181C,1 µM,70%

Blank or dashed fields: not listed here. Lines come from different laboratories, so protocols vary.